Results of unrelated studies side by side (data: NIAID ChemDB).

All rows: host cell toxicity; cell line: CEM; endpoint: CC50

Two numbers with a dash give a range or band. Rows are shuffled and stem from different studies. Blank or dashed fields: not listed here. CCn is the concentration with n% toxicity to the cells.

compound | read by | value
CC(=O)Nc1ccc(S(=O)(=O)N(CC(C)C)C[C@@H](O)[C@H](Cc2ccccc2)NC(=O)[C@H](C)CS(C)(=O)=O)cc1 | - | 860 µM
O=C(CCC(CCC(=O)N[C@H](Cc1c[nH]c2ccccc12)C(=O)O)(CCC(=O)N[C@H](Cc1c[nH]c2ccccc12)C(=O)O)NC(=O)c1cc(C(=O)NC(CCC(=O)N[C@H](Cc2c[nH]c3ccccc23)C(=O)O)(CCC(=O)N[C@H](Cc2c[nH]c3ccccc23)C(=O)O)CCC(=O)N[C@H](Cc2c[nH]c3ccccc23)C(=O)O)cc(C(=O)NC(CCC(=O)N[C@H](Cc2c[nH]c3ccccc23)C(=O)O)(CCC(=O)N[C@H](Cc2c[nH]c3ccccc23)C(=O)O)CCC(=O)N[C@H](Cc2c[nH]c3ccccc23)C(=O)O)c1)N[C@H](Cc1c[nH]c2ccccc12)C(=O)O | visual reading | 56 µM
Cc1c(C)c(S(=O)(=O)NC(N)=NCCCC(N)C(=O)N2CCCC2C#N)c(C)c2c1C(C)(C)OC(C)(C)C2(C)C | - | >50 µM
Nc1ncnc2c1ncn2[C@H]1C[C@@H](O)[C@H](O)[C@@H]1O | - | 3.99 µM
CC(=O)OCC1OC(SC2C(SC(C)=O)OC(COC(C)=O)C(OC(C)=O)C2OC(C)=O)C(OC(C)=O)C(OC(C)=O)C1OC(C)=O | - | >100 µg/mL
C#CCO/N=C/c1cc(NC(=S)c2ccoc2C)ccc1Cl | - | 16 µM
Cc1c(OC(=O)CCCCOc2ccc(C[C@H](NC(=O)OC(C)(C)C)C(=O)O)cc2)cccc1C(=O)N[C@@H](CSc1ccccc1)[C@H](O)CN1C[C@H]2CCCC[C@H]2C[C@H]1C(=O)NC(C)(C)C | MTT | >100 µM
CC(=O)COc1cc(NC(=S)OC(C)C)ccc1Cl | - | 77 µM
COc1ccc(N2CCN(CN3C(=O)C(=Nc4ccc(S(=O)(=O)Nc5nc(C)cc(C)n5)cc4)c4ccccc43)CC2)cc1 | XTT | 34.8 µM
COc1cc(OC)c2c(=O)cc(-c3ccc(OCCCN4CCN(C)CC4)c(N)c3)n(C)c2c1 | MTT | >100 µM
Cc1cc(S(=O)(=O)Nc2nnc3cc(C(F)(F)F)cc(C)n23)c(S)cc1Cl | - | 108 µM
CCC(NC(=O)c1ccccc1SSc1ccccc1C(=O)NC(CC)C(=O)O)C(=O)O | - | >100 µM
Cc1cc(C)c(CS(=O)c2cccc[n+]2[O-])c(C)c1 | - | 35 µg/mL
O=c1[nH]c(=O)n([C@H]2CCC[C@H]2CO)cc1I | - | 68.7 µg/mL
Cc1cn(C2OC(CO[Si](C)(C)C(C)(C)C)C3(OS(=O)(=O)C=C3N)C2O[Si](C)(C)C(C)(C)C)c(=O)n(/C=C/CO)c1=O | - | 3.4 µM
NC1=NNC2(C(N)=N1)c1ccccc1-c1ccccc12 | - | 81 µM
CCCCN(C[C@@H](O)[C@H](Cc1ccccc1)NC(=O)[C@H](C)CS(C)(=O)=O)S(=O)(=O)c1ccccc1 | - | 133 µM
Cc1cn([C@@H]2O[C@H](C3CO[Si](C(C)C)(C(C)C)O[Si](C(C)C)(C(C)C)O3)C3(OS(=O)(=O)C=C3N)[C@H]2O)c(=O)[nH]c1=O | - | 11.4 µM
O=C(CSC1=NNC2(C(=O)N1)c1ccccc1-c1ccccc12)NC(=S)Nc1ccccc1 | - | 35 µM
Cc1c(N)nc(N)nc1OCCOCP(=O)(O)O | microscopy | 10 µM
CC(C)(C)[C@H](NC(=O)c1ccccc1SSc1ccccc1C(=O)N[C@H](C(=O)O)C(C)(C)C)C(=O)O | - | >100 µM
CC1=C(/C=C/C(C)=C\C=C\C(C)=C\C(=O)O)C(C)(C)CCC1 | MTT | >1 µM
COCCCCCCCCCCCC(=O)O | - | 80–190 µM
CC(C)(C)OC(=O)[C@H](CCC(N)=O)NC(=O)c1ccccc1SSc1ccccc1C(=O)N[C@@H](CCC(N)=O)C(=O)OC(C)(C)C | - | 91 µM
Cc1ccc2nc(Cl)c(/C=C/C(=O)c3cc(Cl)sc3Cl)cc2c1 | MTS | 11.9 µM
Nc1nc(=O)n([C@@H]2C=C[C@H](CO)O2)cc1F | - | 6.5 µM
O=S(=O)(Cc1ccccc1I)c1cccc[n+]1[O-] | - | 30 µg/mL
C[C@H](CCC(=O)O)[C@H]1CC[C@H]2[C@@H]3[C@H](O)C[C@@H]4C[C@H](O)CC[C@]4(C)[C@H]3C[C@H](O)[C@]12C | - | 0.01 µM
CC(C)C[C@H](NC(=O)OC(C)(C)C)C(=O)O[C@@H]1Cc2ccccc2[C@@H]1NC(=O)[C@H](Cc1ccccc1)C[C@H](O)CN1CCN(Cc2cccnc2)C[C@H]1C(=O)NC(C)(C)C | MTT | >100 µM
O=C(O)c1ccc(O)c(O)c1 | - | <3 µg/mL
C[N+]1(C)CC2c3cc4c5c6c3-c3c(cc7c8c3C63C[N+](C)(C)CC36C3=C5C(C4)Cc4ccc5cc(c-8c6c5c43)C7)C2C1 | - | >125 µM
O=S(=O)(Nc1nnc2c3ccccc3cnn12)c1ccc(F)cc1S | - | >200 µM
COc1ccc2nc(Cl)c(/C=C/C(=O)c3ccc(I)s3)cc2c1 | MTS | 71.6 µM
Cc1ccc(NC(=O)c2cc(S(=O)(=O)N3CCNNC3=O)c(S)cc2Cl)cc1 | - | >200 µM
Cc1c(OC(=O)CCCCOc2ccc(C[C@H](NC(=O)OC(C)(C)C)C(=O)O)cc2)cccc1C(=O)N[C@@H](CSc1ccccc1)[C@@H](CN1C[C@H]2CCCC[C@H]2C[C@H]1C(=O)NC(C)(C)C)OC(=O)CCCCOc1ccc(C[C@H](NC(=O)OC(C)(C)C)C(=O)O)cc1 | MTT | >100 µM
Nc1ccn([C@@H]2O[C@@H](CO)[C@H](O)C2(F)F)c(=O)n1 | - | >100 µM
O=C(N/N=C/c1ccc(O)cc1)Nc1cccc2nsnc12 | ATP | 26.6 µM
Cc1cn([C@@H]2O[C@H](C(CO[Si](C)(C)C(C)(C)C)O[Si](C)(C)C(C)(C)C)C3(OS(=O)(=O)C=C3N)[C@H]2O[Si](C)(C)C(C)(C)C)c(=O)[nH]c1=O | - | >136 µM
CC(C)c1c(Cc2ccccc2)n(COCc2ccc(/C(O)=C/C(=O)C(=O)O)cc2)c(=O)[nH]c1=O | - | >10 µM
Nc1ncnc2c1ncn2CC(CF)OCP(=O)(O)O | cell count | >100 µM
S=C1N=C(Cl)C2(NN1)c1ccccc1-c1ccccc12 | - | >200 µM
CSCC[C@](C)(NC(=O)c1ccccc1SSc1ccccc1C(=O)N[C@@](C)(CCSC)C(=O)O)C(=O)O | - | >100 µM
Cc1occc1C(=S)Nc1ccc(Cl)c(/C=N/OC2CCCC2)c1 | - | >14 µM
Cc1cc(S(=O)(=O)Nc2nnc3cnc4ccccc4n23)c(S)cc1Cl | - | >200 µM
COc1ccc(S(=O)(=O)N(CC(C)C)C[C@@H](O)[C@H](Cc2ccccc2)NC(=O)[C@H](C)CS(C)(=O)=O)cc1OC | - | 77 µM
O=C1N=C2SC=C(NC(=S)Nc3ccccc3)N2NC12c1ccccc1-c1ccccc12 | - | 66 µM
O=c1[nH]c(=O)n(C[C@H]2CCC[C@H]2CO)cc1I | - | >100 µg/mL
COc1nc2nc([C@@H](O)[C@@H](O)CO)cnc2c(=O)n1C | XTT | >890 µM
Cc1cn([C@H]2C=C[C@@H](CO)O2)c(=O)[nH]c1=O | - | 174 µM
O=C(Nc1ccccc1)c1cc(S(=O)(=O)N2CCNNC2=O)c(S)cc1Cl | - | 197 µM
COc1ccc2nc(Cl)c(/C=C/C(=O)c3sccc3C)cc2c1 | MTS | 10.6 µM
COc1cc(OC)c2c(=O)cc(-c3ccc(O)c(N)c3)n(C)c2c1 | MTT | >100 µM
COc1ccc2nc(Cl)c(/C=C/C(=O)c3ccc(Br)s3)cc2c1 | MTS | 31.6 µM
O=c1ccn([C@H]2CCC[C@H]2CO)c(=O)[nH]1 | - | >100 µg/mL
CCn1cc(C(=O)O)c(=O)c2cc(F)c(N3CCN(CN4C(=O)C(=Nc5ccc(S(=O)(=O)Nc6nc(C)cc(C)n6)cc5)c5cc(F)ccc54)CC3)cc21 | XTT | 117 µM
COc1nc(N)c(N=C[C@@H](O)[C@@H](O)[C@H](O)CO)c(=O)n1C | XTT | >830 µM
Nc1ccn([C@H]2CC[C@@H](CCP(=O)(O)O)O2)c(=O)n1 | - | >200 µM
Cc1ccc2nc(Cl)c(/C=C/C(=O)c3cc4ccccc4o3)cc2c1 | MTS | 5.5 µM
O=C(O)[C@@H]1CCCCN1C(=O)c1ccccc1SSc1ccccc1C(=O)N1CCCC[C@H]1C(=O)O | - | >100 µM
COc1cc(OC)c2c(=O)cc(-c3ccc(OCCCN4CCCCC4)cc3)n(C)c2c1 | MTT | >100 µM
Cc1cn(C2OC(CO[Si](C)(C)C(C)(C)C)C3(OS(=O)(=O)C=C3N)C2O[Si](C)(C)C(C)(C)C)c(=O)n(CCCNC(=O)c2ccc(C(=O)c3ccccc3)cc2)c1=O | - | ≥250 µM
CCn1cc(C(=O)O)c(=O)c2cc(F)c(N3CCN(CN4C(=O)C(=Nc5ccc(S(=O)(=O)Nc6nc(C)cc(C)n6)cc5)c5cc(F)ccc54)C(C)C3)c(F)c21 | XTT | 115 µM
COc1cc(OC)c2c(=O)cc(-c3ccc(OCCCN)c(N)c3)n(C)c2c1 | MTT | >100 µM
O=C1NC(=S)NNC12c1ccccc1-c1ccccc12 | - | 44 µM
CC(C)(C)NC(=O)[C@@H]1CN(Cc2cccnc2)CCN1C[C@H](C[C@@H](Cc1ccccc1)C(=O)N[C@H]1c2ccccc2C[C@H]1O)OC(=O)NCCCCOc1ccc(C[C@H](N)C(=O)O)cc1 | MTT | >100 µM
O=S(=O)(Nc1nnc2c3ccccc3ccn12)c1ccc(F)cc1S | - | 109 µM
Cc1cc(S(=O)(=O)Nc2nnc3c(C(F)(F)F)cc(Cl)cn23)c(S)cc1Cl | - | 139 µM
Cc1occc1C(=S)Nc1ccc(Cl)c(/C=N/OCC(=O)OC(C)(C)C)c1 | - | >24 µM
Cc1cn(C2OC(CO[Si](C)(C)C(C)(C)C)C3(OS(=O)(=O)C=C3N)C2O[Si](C)(C)C(C)(C)C)c(=O)n(CC2CO2)c1=O | - | 47 µM
Cc1cn([C@H]2CC[C@@H](CCP(=O)(O)O)O2)c(=O)[nH]c1=O | - | >200 µM
COc1ccc2nc(Cl)c(/C=C/C(=O)c3ccc(C)s3)cc2c1 | MTS | 14.7 µM
O=C(O)CCCCCCNC(=O)c1ccccc1SSc1ccccc1C(=O)NCCCCCCC(=O)O | - | 44 µM
COc1c(N2CCN(CN3C(=O)C(=Nc4ccc(S(=O)(=O)Nc5nc(C)cc(C)n5)cc4)c4cc(F)ccc43)C(C)C2)c(F)cc2c(=O)c(C(=O)O)cn(C3CC3)c12 | XTT | 135 µM

For reference, 9 entries again:

compound,read by,value
Cc1ccc(NC(=O)c2cc(S(=O)(=O)N3CCNNC3=O)c(S)cc2Cl)cc1,-,>200 µM
Cc1cc(C)c(CS(=O)c2cccc[n+]2[O-])c(C)c1,-,35 µg/mL
Cc1cn([C@@H]2O[C@H](C3CO[Si](C(C)C)(C(C)C)O[Si](C(C)C)(C(C)C)O3)C3(OS(=O)(=O)C=C3N)[C@H]2O)c(=O)[nH]c1=O,-,11.4 µM
CSCC[C@](C)(NC(=O)c1ccccc1SSc1ccccc1C(=O)N[C@@](C)(CCSC)C(=O)O)C(=O)O,-,>100 µM
COCCCCCCCCCCCC(=O)O,-,80–190 µM
COc1ccc(S(=O)(=O)N(CC(C)C)C[C@@H](O)[C@H](Cc2ccccc2)NC(=O)[C@H](C)CS(C)(=O)=O)cc1OC,-,77 µM
COc1cc(OC)c2c(=O)cc(-c3ccc(OCCCN)c(N)c3)n(C)c2c1,MTT,>100 µM
O=c1[nH]c(=O)n(C[C@H]2CCC[C@H]2CO)cc1I,-,>100 µg/mL
O=C(O)c1ccc(O)c(O)c1,-,<3 µg/mL